Results deposited as PubChem BioAssay AID504761 (Drosophila RNAi Screening Center, 2011).
Assay: 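Genome-wide fly cell screen for genes dengue virus requires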 (primary screen). System: D.Mel-2 cells from Drosophila. Knock-down reagent: long dsRNA against Drosophila genes. Challenge: infection with dengue virus type 2; dose and infection time not stated. Measured: 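Cells stained for dengue envelope protein and imaged; percent of infected cells per well on duplicate plates, ranked by infection, with stained nuclei counted for cell number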. Direction: infection score: higher = more virus-infected cells; cell count: higher = more cells in the well. Active means: 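Low infection ranks in the two replicates (chance level up to 0.065) followed by a retest with a 1.5-fold or larger significant decrease, p below 0.05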. Meaning of the calls: active = confirmed: knock-down lowers infection; inactive = not picked or not confirmed.
The deposit covers about 22,000 reagents; below is a random part of those that have a named target and a result. Over the whole deposit, 116 (0.52%) got an active call. 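Calls depend on retest data that are not deposited; infection was ranked per plate without normalising between plates; the unit of the infection score is not given.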 The raw values are shown without normalisation. A number with no mark means an inactive call. The record does not give: the amount of reagent, the time to read-out.

gene,DRSC id,"infection score, replicate 1","infection score, replicate 2","cell count, replicate 1","cell count, replicate 2"
CG31548 (GeneID 318794),DRSC22640,8.34,28.8,6822,6386
CG31548 (GeneID 318794),DRSC25763,2.1,2.11,5528,5916
CG11816 (GeneID 32310),DRSC19428,0.3,3.73,334,1071
CG11816 (GeneID 32310),DRSC23612,3.58,1.63,6641,6331
CG1077 (GeneID 40751),DRSC12146,1.22,1.19,5973,6710
CG1077 (GeneID 40751),DRSC26068,6.33,4.03,6115,6358
CG33460 (GeneID 3885588),DRSC05570,1.7,3.36,6488,6156
CG18659 (GeneID 35929),DRSC06784,3.92,5.54,6781,6702
dgt1 (GeneID 43529),DRSC15301,8.32,4.9,841,6382
Tmem214 (GeneID 34514),DRSC02924,0.46 (active),0.88,6744,6839
Tmem214 (GeneID 34514),DRSC02925,0.77,0.46,6713,6999
Tmem214 (GeneID 34514),DRSC28172,12.1,6.88,6650,6223
CG17239 (GeneID 59224),DRSC00492,6.41,1.62,6118,6189
RpL11 (GeneID 37235),DRSC07537,4.27,2.02,1358,791
RpL11 (GeneID 37235),DRSC26217,7.32,9.88,1693,3734
ric8a (GeneID 31874),DRSC18093,3.83,1.63,6509,6523
ric8a (GeneID 31874),DRSC24387,6.24,9.35,6603,6995
rha (GeneID 43071),DRSC17044,14.2,10.4,5944,6487
CG16970 (retired record) (GeneID 34740),DRSC02549,4.68,4.18,6629,6482
CG16970 (retired record) (GeneID 34740),DRSC25187,2.21,2.3,6384,5924
z (GeneID 31230),DRSC23134,2.79,6.45,5946,6167
mesh (GeneID 43688),DRSC14472,2.66,11.6,6342,7135
mesh (GeneID 43688),DRSC15098,4.17,5.84,6617,1336
mesh (GeneID 43688),DRSC15099,8.88,0.63,6395,6460
Nup160 (GeneID 34549),DRSC02774,11.4,6.94,1054,865
Or85b (GeneID 41007),DRSC16765,7.86,12.5,6006,6372
GstZ2 (GeneID 41133),DRSC16479,20.7,15.9,5603,6013
CG12307 (GeneID 34584),DRSC02159,5.94,10.7,5941,6222
ldbr (GeneID 38900),DRSC10933,3.54,4.96,6413,6245
PolE2 (GeneID 38661),DRSC09737,1.48,6.98,6223,6951
Ir47a (GeneID 36095),DRSC06215,12,3.12,6805,6382
CG33235 (GeneID 2768871),DRSC19641,4.28,14.3,2078,5510
sel (GeneID 36046),DRSC06232,11,8.13,6283,6466
CG7668 (GeneID 40190),DRSC10901,0.69,9.96,289,6670
CG1907 (GeneID 43483),DRSC15399,6.38,7.89,5748,6334
Pms2 (GeneID 36705),DRSC07511,12.3,11.7,5446,6526
CG12655 (GeneID 33004),DRSC20678,5.58,3.3,5523,4762
CG14655 (GeneID 40594),DRSC12241,2.11,10.8,6539,6367
CG14655 (GeneID 40594),DRSC29900,1.31,11.1,6398,6009
mRpS30 (GeneID 32530),DRSC20107,3.61,1.82,5899,6052
CG3776 (GeneID 37996),DRSC04417,17,14,6035,1073
5-HT7 (GeneID 43669),DRSC12635,2.51,1.82,5612,5825
5-HT7 (GeneID 43669),DRSC24891,7.66,18,5029,5116
CG10345 (GeneID 42017),DRSC14138,7.19,6.44,5425,7156
eIF1A (GeneID 44260),DRSC16937,7.16,2.34,5113,5815
CG14186 (GeneID 40196),DRSC10185,8.18,3.27,6074,6945
CG14186 (GeneID 40196),DRSC28085,28.1,3.33,5119,6274
CG6845 (GeneID 38019),DRSC08576,16,9.03,6615,6060
CG6845 (GeneID 38019),DRSC26319,1.95 (active),0.98,6563,5739
flz (GeneID 35902),DRSC07109,,13.6,290,2807
CG6333 (GeneID 39953),DRSC10626,8.01,9.84,5842,5792
CG31300 (GeneID 326132),DRSC14657,9.66,0.88,5715,6914
CG31300 (GeneID 326132),DRSC25696,7.08,18,6722,6113
CG6621 (GeneID 41319),DRSC16076,7.61,4.35,6522,5885
CG6621 (GeneID 41319),DRSC26979,14,2.26,6386,6459
Ir94h (GeneID 42769),DRSC15232,7.05,8.09,6315,5723
CG43163 (GeneID 38966),DRSC10745,3.03,2.65,6399,6642
CG43163 (GeneID 38966),DRSC10748,3.88,3.98,6111,6123
CG43163 (GeneID 38966),DRSC23670,7.24,8.25,6560,5659

Entries listed above with an active call, once more:
gene,DRSC id,"infection score, replicate 1","infection score, replicate 2","cell count, replicate 1","cell count, replicate 2"
Tmem214 (GeneID 34514),DRSC02924,0.46 (active),0.88,6744,6839
CG6845 (GeneID 38019),DRSC26319,1.95 (active),0.98,6563,5739
